Measurements as given in ChEMBL document CHEMBL3228013 (J Med Chem, 1979).
Calls of active or inactive are those of the source. The rule behind the calls is not given here.

What was measured:
KB = test: Cytotoxicity against human KB cells; type: functional, cell-based
L1210 = test: Antitumor activity against mouse L1210 cells allografted in mouse at 500 mg/kg, ip began on day 1 halved compound dose ended at […], ip measured on day 30; type: functional, organism-based
How it was run: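 Female or male mice bearing L1210 lymphoid leukemia were tested under the NCI standard protocol. Dosing was ip, day 1 only, in aqueous Tween-80, at halved doses starting at 500 mg/kg and generally ending at 62.5 mg/kg. Mean survival time was assessed on day 30, and T/C ≥125% was taken as active.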

Row | SMILES | Activity (KB) | Activity (L1210)
1 | NP(=O)(Oc1ccc([N+](=O)[O-])cc1)N(CCCl)CCCl (centres undefined) | inactive | inactive
2 | Cc1ccc(NP(=O)(Cl)N(CCCl)CCCl)cc1 (centres undefined) | Active | inactive
